Source: patent US20110124715A1, “Antiviral Oligonucleotides Having a Conserved G4 Core Sequence” (priority 1992, published 2011)
Entries after “also recorded” stand apart in the source; their conditions may differ. Where two headings read alike, the source gives them in different places.

How the values were obtained:
CD4 = CD4 (Homo sapiens, UniProt P01730); assay type: binding
V3 loop of gp120 = V3 loop of gp120 (Human immunodeficiency virus type 1 group M subtype B, UniProt P03375); conditions: inhibition of binding of V3 loop monoclonal antibody; FIG. 18
CD4/gp120 interaction [1] = biological target: T1, CD4/gp120 interaction (Human immunodeficiency virus type 1 group M subtype B, UniProt P03375); conditions: plates coated with CD4
CD4/gp120 interaction [2] = biological target: T1, CD4/gp120 interaction; conditions: data not shown
CEM-SS cell line = conditions: b223
[3] = Fraction tetramer by size exclusion chromatography; assay type: physicochemical
[4] = test system: HIV proteins (Tat, p24, reverse transcriptase, vif, protease, gp41), soluble CD4 (sCD4) and non-related proteins; assay type: binding; conditions: monomeric and tetrameric forms
gp120 = gp120 (Human immunodeficiency virus type 1 group M subtype B, UniProt P03375); conditions: read-out: dissociation constant (Kd); immobilized gp120; FIG. 16

## T2A4T2-biotin [reference compound]
CD4
  Kd: ~240 µM

## TT GGGG TT [ISIS 5320]
V3 loop of gp120
  Ki: ~500 nM
CD4/gp120 interaction [1]
  IC50: ~20 µM
CD4/gp120 interaction [2]; read-out: concentration inhibiting 50% of binding of CD4 to immobilized gp120
  IC50: ~2500 nM
CEM-SS cell line
  concentration at which cytotoxic effects were observed: approximately 100 μM
[3]; Table 15, in parentheses, asterisk = multiple aggregate species
  % tetramer: 93%
[3]; Table 16, asterisk = more than one aggregate species
  % tetramer: 98%
[4]
  protein binding in gel shift: bound to BSA and reverse transcriptase; also recorded: Tetramer-specific binding was observed only to gp120 and sCD4

## TGTGTGTG [ISIS 6071, reference compound]
CD4/gp120 interaction [2]
  concentration inhibiting 50% of binding of CD4 to immobilized gp120: had no effect

## TsTsGsGsGsGsTsTsB
gp120
  Kd: < 1000 nM
